# ± gives the standard deviation of the averaged measurements. This is a selection; strong and weak results do not stand in their true shares.
# System: A549
# Assay: relative viability (normalised to negative control = 1, bortezomib = 0) (fraction); higher = less cytotoxic
# Conditions: inflammatory serum-free RHB-A with cytokines + LPS, 5 d + 24 h CellTiter-Blue
# Description: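 A549 KRAS-mutant NSCLC cells, pre-treated 5 µM GSK126 or vehicle (DMSO), were seeded at 250 cells/well in 384-well plates in serum-free RHB-A medium with inflammatory cytokines/LPS and treated with Selleck kinase inhibitor and NCI oncology compounds at 30 or 300 nM in triplicate, refreshed at 48 h. Viability was read by CellTiter-Blue after 5 d plus 24 h and normalised per plate with cellHTS2 (mean of bortezomib positive control = 0, mean of negative control = 1).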
smiles,measurement,setting,value
[As+3].[As+3].[O-2].[O-2].[O-2] [Arsenic trioxide],relative viability,"compound 30 nM, GSK126 pretreatment: 5 uM GSK126",0.939 ± 0.1
same,relative viability,"compound 30 nM, GSK126 pretreatment: none (vehicle)",0.885 ± 0.099
same,relative viability,"compound 300 nM, GSK126 pretreatment: 5 uM GSK126",0.975 ± 0.11
same,relative viability,"compound 300 nM, GSK126 pretreatment: none (vehicle)",0.961 ± 0.069

# Reference: the supplement of paper PMC6279402
